PubChem BioAssay AID624099 – ICCB-Longwood | 2012
Assay: 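Host factors E2 relies on to silence an HPV18 LCR reporter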 (primary screen). Cell system: human C33A cervical carcinoma cells (HPV-negative) stably expressing BPV1 E2 and an HPV18 LCR luciferase reporter. Reagent: siRNA pool against human genes, 40 nM. Timing: 72 h. Measurement: 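HPV18 LCR reporter light per well, converted to plate-wise z-scores that exclude control wells, and averaged over triplicate plates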. Reading the numbers: mean z-score and z-score: higher = stronger reporter signal, weaker E2 silencing. Call rule: 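Mean z ≥ 2 together with z ≥ 2 in two or more of the three replicates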.
The whole screen tested about 21,000 reagents; this is a random part of them. In the full data, 497 (2.4%) got an active call. 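Higher z means weaker E2 silencing; only reporter increases were scored, and knock-downs that hurt cell survival may mask genuine repressor factors.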 No sequences are given here.

LAGE3 (L antigen family member 3) [SID134316460]
- mean z-score: -1.63
- z-score, replicate A: -1.6
- z-score, replicate B: -1.7
- z-score, replicate C: -1.58
- Outcome: inactive

ABCG2 (ATP binding cassette subfamily G member 2 (JR blood group)) [SID134314616]
- mean z-score: 0.37
- z-score, replicate A: 0.41
- z-score, replicate B: 0.31
- z-score, replicate C: 0.38
- Outcome: inactive

KCNE3 [SID134321461]
- mean z-score: -0.6
- z-score, replicate A: -0.78
- z-score, replicate B: -0.66
- z-score, replicate C: -0.36
- Outcome: inactive

TCF15 (transcription factor 15) [SID134314733]
- mean z-score: 0.43
- z-score, replicate A: 0.37
- z-score, replicate B: 0.41
- z-score, replicate C: 0.52
- Outcome: inactive

RAB39B (RAB39B, member RAS oncogene family) [SID134313425]
- mean z-score: 0.76
- z-score, replicate A: 0.75
- z-score, replicate B: 0.82
- z-score, replicate C: 0.72
- Outcome: inactive

RBMS1 (RNA binding motif single stranded interacting protein 1) [SID134310145]
- mean z-score: 0.33
- z-score, replicate A: 0.23
- z-score, replicate B: 0.47
- z-score, replicate C: 0.28
- Outcome: inactive

RBMS1 (RNA binding motif single stranded interacting protein 1) [SID134315720]
- mean z-score: 1.29
- z-score, replicate A: 1.03
- z-score, replicate B: 1.64
- z-score, replicate C: 1.19
- Outcome: inactive

OR52I1 (olfactory receptor family 52 subfamily I member 1) [SID134328325]
- mean z-score: 0.12
- z-score, replicate A: 0.36
- z-score, replicate B: 0.25
- z-score, replicate C: -0.24
- Outcome: inactive

RFC1 (replication factor C subunit 1) [SID134314052]
- mean z-score: -0.35
- z-score, replicate A: -0.23
- z-score, replicate B: -0.46
- z-score, replicate C: -0.36
- Outcome: inactive

RSPH6A (radial spoke head 6 homolog A) [SID134318764]
- mean z-score: 0.65
- z-score, replicate A: 1.1
- z-score, replicate B: 0.21
- z-score, replicate C: 0.63
- Outcome: inactive

ATP6AP1 (ATPase H+ transporting accessory protein 1) [SID134324966]
- mean z-score: -0.98
- z-score, replicate A: -1.19
- z-score, replicate B: -0.8
- z-score, replicate C: -0.94
- Outcome: inactive

SQSTM1 (sequestosome 1) [SID56479234]
- mean z-score: 1.03
- z-score, replicate A: 0.74
- z-score, replicate B: 0.75
- z-score, replicate C: 1.6
- Outcome: inactive

POFUT1 (protein O-fucosyltransferase 1) [SID134317095]
- mean z-score: -0.77
- z-score, replicate A: -0.76
- z-score, replicate B: -0.86
- z-score, replicate C: -0.69
- Outcome: inactive

QTGAL (queuosine-tRNA galactosyltransferase) [SID134323117]
- mean z-score: -0.09
- z-score, replicate A: 0.63
- z-score, replicate B: -0.28
- z-score, replicate C: -0.61
- Outcome: inactive

STEAP1 (STEAP family member 1) [SID134310049]
- mean z-score: 0.37
- z-score, replicate A: -0.04
- z-score, replicate B: 0.51
- z-score, replicate C: 0.63
- Outcome: inactive

RPAIN (RPA interacting protein) [SID134318935]
- mean z-score: 0.97
- z-score, replicate A: 1.02
- z-score, replicate B: 0.7
- z-score, replicate C: 1.2
- Outcome: inactive

HERC4 (HECT and RLD domain containing E3 ubiquitin protein ligase 4) [SID134325006]
- mean z-score: 0.93
- z-score, replicate A: 0.88
- z-score, replicate B: 0.92
- z-score, replicate C: 0.99
- Outcome: inactive

EIF4E1B (eukaryotic translation initiation factor 4E family member 1B) [SID134326034]
- mean z-score: -0.4
- z-score, replicate A: -0.77
- z-score, replicate B: -0.03
- z-score, replicate C: -0.39
- Outcome: inactive

PF4 (platelet factor 4) [SID134312990]
- mean z-score: -0.93
- z-score, replicate A: -1.02
- z-score, replicate B: -0.83
- z-score, replicate C: -0.92
- Outcome: inactive

CD69 (CD69 molecule) [SID134311752]
- mean z-score: -0.04
- z-score, replicate A: 0.06
- z-score, replicate B: -0.08
- z-score, replicate C: -0.1
- Outcome: inactive

NXF2 (nuclear RNA export factor 2) [SID134314984]
- mean z-score: 0.26
- z-score, replicate A: -0.04
- z-score, replicate B: 0.31
- z-score, replicate C: 0.52
- Outcome: inactive

EPRS1 (glutamyl-prolyl-tRNA synthetase 1) [SID134313128]
- mean z-score: 2.17
- z-score, replicate A: 1.95
- z-score, replicate B: 2.57
- z-score, replicate C: 1.97
- Outcome: inactive

ARL6IP5 (ARF like GTPase 6 interacting protein 5) [SID134316516]
- mean z-score: -0.03
- z-score, replicate A: -0.18
- z-score, replicate B: -0.03
- z-score, replicate C: 0.12
- Outcome: inactive

TTC24 (tetratricopeptide repeat domain 24) [SID134325377]
- mean z-score: 0.25
- z-score, replicate A: 0.13
- z-score, replicate B: 0.09
- z-score, replicate C: 0.52
- Outcome: inactive

GORAB (golgin, RAB6 interacting) [SID134320149]
- mean z-score: -1.27
- z-score, replicate A: -1.18
- z-score, replicate B: -1.58
- z-score, replicate C: -1.06
- Outcome: inactive

ZNF652 (zinc finger protein 652) [SID134324180]
- mean z-score: -0.79
- z-score, replicate A: -0.74
- z-score, replicate B: -0.9
- z-score, replicate C: -0.73
- Outcome: inactive

LMBRD2 (LMBR1 domain containing 2) [SID134326080]
- mean z-score: 0.75
- z-score, replicate A: 0.62
- z-score, replicate B: 0.73
- z-score, replicate C: 0.91
- Outcome: inactive
